Compound potency records, mixed from different reports. Data source: NIAID ChemDB in PubChem.

All rows: whole-cell or culture tests; species: Hepatitis C virus; endpoint: EC50

Rows are shuffled and stem from different studies.

compound	strain	method	cells	result
CC(C)Nc1nc(NCc2cccnc2)nc2ccc(-c3ccc(F)cc3)nc12	-	replicon	-	0.1–0.25 µM
CNC(=O)c1c(-c2ccc(F)cc2)oc2cc(C3CCN(S(C)(=O)=O)C3)c(OC)cc12	-	replicon	Huh7	<1 µM
CC1CCC(C(=O)N(c2cc(-c3ccc(NC(=O)c4ccccn4)cc3)sc2C(=O)O)C(C)C)CC1	1a	replicon	-	<0.5 µM
CC1(C)CC(=O)C2=C(C1)Nc1c(O)cccc1N(C(=O)c1cnccn1)C2c1ccc(OC(F)(F)c2ccccc2)cc1F	1b	luciferase / reporter gene / replicon	-	9.49 µM
CNC(=O)c1c(-c2ccc(F)cc2)oc2cc(-c3noc(C(F)(F)F)n3)c(OC(C)C)cc12	-	replicon	Huh7	<30 µM
CCn1ccc(C(=O)Nc2ccc(-c3cc(N(C(=O)C4CCC(C)CC4)C(C)C)c(C(=O)O)s3)cc2)n1	1b	replicon	-	<0.5 µM
CCCCCOc1ccc(N(C(=O)C2CC2)c2nc(-c3cccnc3)cs2)cc1C(F)(F)F	-	-	-	<1 µM
Cc1nn(C)c2nc(Cl)c(Cn3c(C(=O)O)c(-c4ccc[nH]c4=O)c4c5occc5c(F)cc43)cc12	-	replicon	-	<0.5 µM
CNC(=O)c1c(-c2ccc(F)cc2)oc2cc(N(C)S(C)(=O)=O)c(OCc3nccn3C)cc12	-	replicon	Huh7	<1 µM
O=C(O)/C=C/c1ccc(NC(=O)C2(NC(=O)c3ccc4c(C5CCCCC5)c5n(c4c3)CC=Cc3ccccc3-5)CCCC2)cc1	-	replicon	Huh7	0.01–1 µM
CC1(C)CC(=O)C2=C(C1)Nc1c(O)cccc1NC2c1c(Cl)cccc1Cl	1b	luciferase / reporter gene / replicon	-	11.87 µM
O=C(O)c1c(-c2ccc[nH]c2=O)c2c3ncsc3ccc2n1Cc1ccc(F)cc1F	-	replicon	-	>1.5 µM
NS(=O)(=O)c1ccc(CNc2nc(NC3CC3)c3nc(-c4ccc(NC(=O)C5(O)CC5)cc4)ccc3n2)cc1	-	replicon	-	<0.1 µM
CN(C)CCNC(=O)C1Cc2ccccc2-c2c(C3CCCCC3)c3ccc(C(=O)NC4(CNc5ccc(/C=C/C(=O)O)cc5)CCCC4)cc3n2C1	-	replicon	Huh7	0.01–1 µM
COC(=O)N[C@H](C(=O)N1CCCC1c1ncc(-c2ccc(-c3ccc(-c4cnc([C@@H]5CC(C)CN5C(=O)[C@@H](NC(=O)CO)C(C)C)[nH]4)cc3)cc2)[nH]1)C(C)C	1a	luciferase	Lunet	0.0000107 µM
CCOc1nc(N)nc2ccc(-c3ccc(C(=O)NOC)cc3)nc12	-	replicon	Huh7	0.3–1 µM
O=C(O)c1ccc2c(C3CCCCC3)c3n(c2c1)CC(=O)N3Cc1ccccc1	-	replicon	Huh7	>10 µM
CCOc1nc(NCc2ccc(F)cc2)nc2ccc(-c3ccc(N4CCC(O)C4=O)cc3)nc12	-	replicon	-	<0.1 µM
NC(=O)c1ccc(Cn2c(C(=O)O)c(-c3ccc[nH]c3=O)c3c4occc4c(F)cc32)cc1	-	replicon	-	<0.5 µM
CNC(=O)c1c(-c2ccc(F)cc2)oc2cc(-c3n[nH]c(C)n3)c(OC)cc12	-	replicon	Huh7	<10 µM
O=C(O)c1c(-c2ccc[nH]c2=O)c2c3occc3c(F)cc2n1Cc1nc2ccccc2[nH]c1=O	-	replicon	-	<0.5 µM
N#CC1(NC(=O)c2ccc(-c3ccc4nc(NCc5ccc(F)cc5)nc(O[C@H]5CCOC5)c4n3)cc2)CC1	-	replicon	-	<0.1 µM
O=C(Nc1ccc(C2SC(=Nc3ccc(N4CCOCC4)cc3)N(Cc3ccccn3)C2=O)cc1)[C@H]1CCCN1C(=O)C1(c2ccccc2)CC1	-	replicon	Huh7	<0.1 µM
Cc1cc(C(=O)Nc2ccc(-c3cc(N(C(=O)C4CCC(C)CC4)C(C)C)c(C(=O)O)s3)cc2)no1	1a	replicon	-	<0.5 µM
O=C(Nc1ccc(C2SC(=Nc3cccnc3)N(Cc3cccc(F)c3)C2=O)cc1)[C@H]1C[C@H](O)CN1C(=O)OCc1ccccc1	-	replicon	Huh7	0.1–1 µM
CNC(=O)c1c(-c2ccc(F)cc2)oc2cc(CNS(C)(=O)=O)c(OC(C)C)cc12	-	replicon	Huh7	<10 µM
CCOc1nc(N)nc2ccc(-c3cccc(NS(=O)(=O)CC(F)(F)F)c3)nc12	-	replicon	Huh7	0.3–1 µM
CCCCCCCOc1ccc(N(C(=O)C(=O)OC)c2nc(-c3ccc(Cl)s3)cs2)cc1	-	-	-	<1 µM
CNC(=O)c1c(-c2ccc(F)cc2)oc2cc(N(C)S(C)(=O)=O)c(OCc3cccc(C(=O)O)c3)cc12	-	replicon	Huh7	<1 µM
O=C(O)CCC(=O)N(c1ccc(OCCCCc2cccs2)c(C(F)(F)F)c1)c1nc(-c2cccnc2)c(F)s1	-	-	-	<1 µM
C[C@@H](NC(=O)OCc1ccccc1)C(=O)Nc1ccc(C2SC(=Nc3ccc4c(c3)OCCO4)N(Cc3ccco3)C2=O)cc1	-	replicon	Huh7	<0.1 µM
CC1(C)CC(=O)C2=C(C1)Nc1c(O)cccc1NC2c1ccc(-c2ccccc2)cc1	1b	luciferase / reporter gene / replicon	-	25.33 µM
CNC(=O)c1c(-c2ccc(F)cc2)oc2cc(N(C)S(C)(=O)=O)c(OC(C)c3nccs3)cc12	-	replicon	Huh7	<1 µM
Cc1nc2c(s1)CCCn1c-2c(C2CCCCC2)c2ccc(C(=O)NC3(C(=O)Nc4ccc(/C=C/C(=O)O)cc4)CCCC3)cc21	-	replicon	Huh7	1–10 µM
CC1(C)CC(=O)C2=C(C1)Nc1c(O)cccc1N(C(=O)C(F)(F)F)C2c1ccc(Cl)cc1Cl	1b	luciferase / reporter gene / replicon	-	3.88 µM
O=C(NS(=O)(=O)C1CC1)c1c(-c2ccc[nH]c2=O)c2c3ccccc3c(F)cc2n1Cc1ccccc1F	-	replicon	-	<1 µM
COc1nc(NCc2ccc(F)cc2)nc2ccc(-c3ccc(F)cc3)nc12	-	replicon	-	<0.1 µM
COC(=O)c1ccc2c(C3CCCCC3)c3n(c2c1)CC(C(=O)O)=Cc1cc(OC)ccc1-3	-	replicon	Huh7	1–10 µM
C[C@@H](NC(=O)OCc1ccccc1)C(=O)Nc1ccc(C2SC(=Nc3cccc(F)c3)N(Cc3ccccn3)C2=O)cc1	-	replicon	Huh7	<0.1 µM
CS(=O)(=O)NC(=O)c1c(-c2ccc[nH]c2=O)c2c3c(ccc2n1Cc1cc(F)ccc1F)OCCO3	-	replicon	-	<1 µM
CC(C)(C)OC(=O)/C=C/c1ccc(NC(=O)C2(NC(=O)c3ccc4c(C5CCCCC5)c5n(c4c3)CC(=O)Nc3cccnc3-5)CCCC2)cc1	-	replicon	Huh7	0.01–1 µM
C[C@@H](NC(=O)OCc1ccccc1)C(=O)Nc1ccc(C2SC(=Nc3ccc(N4CCOCC4)cc3)N(Cc3ccccn3)C2=O)cc1	-	replicon	Huh7	<0.1 µM
CC1CCC(C(=O)N(c2cc(-c3ccc(NC(=O)c4ccc(CO)o4)cc3)sc2C(=O)O)C(C)C)CC1	1b	replicon	-	<0.5 µM
CCCCCOc1ccc(N(C(=O)C2CC2)c2nc(-c3ccc(C(=O)N(C)C)cn3)cs2)cc1C(F)(F)F	-	-	-	>10 µM
O=C(O)c1ccc2c(C3CCCCC3)c3n(c2c1)CNc1ccccc1-3	-	replicon	Huh7	0.01–1 µM
CS(=O)(=O)CCNc1nc(NCc2ccc(F)cc2)nc2ccc(-c3ccc(C(N)=O)cc3)nc12	-	replicon	-	<0.1 µM
CS(=O)(=O)NC(=O)c1c(-c2ccc[nH]c2=O)c2c3c(ccc2n1Cc1ccccc1F)CCO3	-	replicon	-	<0.5 µM
CC1CCC(C(=O)N(c2cc(-c3ccc(NC(=O)c4cscn4)cc3)sc2C(=O)O)C(C)C)CC1	1b	replicon	-	<0.5 µM
CC1(C)CC(=O)C2=C(C1)Nc1c(O)cccc1NC2c1c(OC(F)F)ccc2ccccc12	1b	luciferase / reporter gene / replicon	-	>32 µM
COC(=O)/C=C/c1ccc(NC(=O)C2(NC(=O)c3ccc4c(C5CCCCC5)c5n(c4c3)CCOc3cccnc3-5)CCCC2)cc1	-	replicon	Huh7	0.01–1 µM
CCOc1nc(NCc2nccs2)nc2ccc(-c3ccc(F)cc3)nc12	-	replicon	-	<0.1 µM

Repeating the first 5 entries:

compound | strain | method | cells | result
CC(C)Nc1nc(NCc2cccnc2)nc2ccc(-c3ccc(F)cc3)nc12 | - | replicon | - | 0.1–0.25 µM
CNC(=O)c1c(-c2ccc(F)cc2)oc2cc(C3CCN(S(C)(=O)=O)C3)c(OC)cc12 | - | replicon | Huh7 | <1 µM
CC1CCC(C(=O)N(c2cc(-c3ccc(NC(=O)c4ccccn4)cc3)sc2C(=O)O)C(C)C)CC1 | 1a | replicon | - | <0.5 µM
CC1(C)CC(=O)C2=C(C1)Nc1c(O)cccc1N(C(=O)c1cnccn1)C2c1ccc(OC(F)(F)c2ccccc2)cc1F | 1b | luciferase / reporter gene / replicon | - | 9.49 µM
CNC(=O)c1c(-c2ccc(F)cc2)oc2cc(-c3noc(C(F)(F)F)n3)c(OC(C)C)cc12 | - | replicon | Huh7 | <30 µM

ECn: concentration that inhibits the pathogen or its effect by n%. Blank or dashed fields: not listed here. Two numbers with a dash give a range or band.